Compound potency records, mixed from different reports. Data source: NIAID ChemDB in PubChem.

Shared fields: whole-cell or culture tests; organism: Mycobacterium bovis

ECn: concentration that inhibits the pathogen or its effect by n%. Neighbouring rows are from separate reports. An empty or dashed field is not shown.

SMILES | endpoint | strain | method | conditions | result
O=[N+]([O-])c1ccc(O)c2ncccc12 | MIC | BCG |  |  | 10 µM
C=CC(C)(/C=C/c1ccc(O)cc1)CCC=C(C)C | MIC | BCG |  |  | 21.4 µg/mL
CCN1CCN(c2cc3c(cc2F)c(=O)c(C(=O)O)cn3C2CC2)CC1 | MIC | BCG-CX2 (A90V D94N) |  |  | 35 µg/mL
C=CC1=C(C)C2=Cc3c(C=C)c(C)c4[n]3[Ga][n]3c(c(C)c(CCC(=O)O)c3=CC3=NC(=C4)C(C)=C3CCC(=O)O)=CC1=N2 | MIC | BCG |  |  | 0.4 µg/mL
COC[C@H]1OC(=O)c2coc3c2[C@@]1(C)C1=C(C3=O)C2CCC(=O)[C@@]2(C)C[C@H]1OC(C)=O | EC50 | BCG |  |  | >0.5 µM
C[C@]1(COc2ccc(N3CCC(Oc4ccc(OC(F)(F)F)cc4)CC3)cc2)Cn2cc([N+](=O)[O-])nc2O1 | MIC | BCG |  |  | 0.012 µg/mL
O=[N+]([O-])c1cn2c(n1)OC[C@@H](OCc1ccc(OC(F)(F)F)cc1)C2 | MBC | rBCG-lux |  |  | 2 µg/mL
O=[N+]([O-])c1cn2c(n1)OC[C@@H](OCc1ccc(OC(F)(F)F)cc1)C2 | MIC | BCG |  |  | 0.05 µg/mL
NNC(=O)c1ccncc1 | MIC | BCG | fluorescence |  | 0.31 µM
CCC(C)n1ncn(-c2ccc(N3CCN(c4ccc(OC[C@H]5CO[C@](Cn6cncn6)(c6ccc(Cl)cc6Cl)O5)cc4)CC3)cc2)c1=O | EC50 |  |  |  | >100 µM
COc1ccc(C=Nc2ccc(C(=O)O)c(O)c2)c(O)c1 | EC75 | BCG |  |  | 26 µM
Clc1ccc(C2(Cn3cncn3)OCCO2)c(Cl)c1 | EC50 |  |  |  | >1 µM
CO[C@H]1/C=C/O[C@@]2(C)Oc3c(C)c(O)c4c(O)c(c(/C=N/N5CCN(C)CC5)c(O)c4c3C2=O)NC(=O)/C(C)=C\C=C\[C@H](C)[C@H](O)[C@@H](C)[C@@H](O)[C@@H](C)[C@H](OC(C)=O)[C@@H]1C | MIC | SB1176 | resazurin |  | 0.09 µg/mL
COc1ccnc2[nH]cc(C(=O)C(=O)N3CCN(C(=O)c4ccccc4)C[C@H]3C)c12 | EC50 | BCG |  | pseudotyped | 0.001 µM
CCC1(c2ccccc2)NC(=O)NC1=O | EC50 |  |  |  | >100 µM
CCC1CN(c2cc3c(cc2F)c(=O)c(C(=O)O)cn3C2CC2)CCN1 | MIC | BCG-CX1 (D94N) |  |  | 7 µg/mL
Cn1c2c3ccccc3nc-2cc2ccccc21 | MIC | BCG |  |  | 12.5 µg/mL
c1ccc2[nH]cnc2c1 | EC50 |  |  |  | >100 µM
COc1ccc(C=O)cc1 | MIC | AN5 | resazurin |  | 7.29 µg/mL
CCN1CCN(c2c(F)cc3c(=O)c(C(=O)O)cn(C4CC4)c3c2OC)CC1 | MIC | BCG-KD1295 (WILD TYPE) |  |  | 0.058 µg/mL

Repeating the first 2 entries:

| SMILES | endpoint | strain | method | conditions | result |
|---|---|---|---|---|---|
| O=[N+]([O-])c1ccc(O)c2ncccc12 | MIC | BCG |  |  | 10 µM |
| C=CC(C)(/C=C/c1ccc(O)cc1)CCC=C(C)C | MIC | BCG |  |  | 21.4 µg/mL |